Patent US20220326221A1

Target: mScarlet-SNAP25-GeNluc indicator protein
Experiment: cell-based or functional assay

## BoNT/A (Metabiologics, Inc.) (from UniProt P0DPI0 2-1296)
  reduction in green-positive cells per HPF, 1 nM BoNT/A for 24 hours, NG108 cells: 25%
